Measured values from several laboratories, pooled; numbers as filed in NIAID ChemDB.

Common to all: host cell toxicity; cells: HepG2 2.2.15; read-out: CC50

Neighbouring rows are from separate reports.

smiles,method,result
Nc1ncnc2c1ncn2CCOCP(=O)(O)O,,37 µM
COc1cc(/C=C/C(=O)CC(=O)/C=C/c2ccc(O)c(OC)c2)ccc1O,,>100 µM
N#C[C@]1(CO)/C(=C\F)[C@@H](n2cnc3c(=O)[nH]c(N)nc32)CC1O,MTT,169 µM
OC[C@H]1NC[C@H](O)[C@@H](O)[C@@H]1O,,>5000 µM
C[C@@]12C(=O)OC(=O)[C@]1(C)[C@H]1CC[C@@H]2O1,,3.5 µM
O=c1c(-c2ccc(O)cc2)coc2cc(OC3O[C@H](CO)[C@@H](O)[C@H](O)[C@H]3O)ccc12,,>100 µM
Nc1ncnc2c1ncn2C[C@@H](CO)OCP(=O)(O)O,,>100 µM
C[C@H]1[C@@H](OC(=O)CCC(=O)O)O[C@@H]2O[C@@]3(C)CC[C@H]4[C@H](C)CC[C@@H]1[C@@]24OO3,,20 µM
CCC(C)CCC[C@@H](C)CCN1C[C@H](O)[C@@H](O)[C@H](O)[C@H]1CO,,100 µM
O=c1c(-c2ccc(O)cc2)coc2c(O[C@@H]3O[C@H](CO)[C@@H](O)[C@H](O)[C@H]3O)c(O)ccc12,,>100 µM
O=C(N[C@H](CO)Cc1ccccc1)/C(NC(=O)c1ccc(Cl)cc1Cl)=C(/Br)c1ccccc1,MTT,>100 µM
C[C@H](Cn1cnc2c(N)ncnc21)OCP(=O)(O)O,,>100 µM
COc1cc(NC(=O)Nc2cccc(CNC(=O)O[C@H]3CCOC3)c2)ccc1-c1cnco1,XTT,5.2 µM
CCCOCCCCCCN1C[C@H](O)[C@@H](O)[C@H](O)[C@H]1CO,,>2000 µM

For reference, 2 entries again:

smiles,method,result
CCC(C)CCC[C@@H](C)CCN1C[C@H](O)[C@@H](O)[C@H](O)[C@H]1CO,,100 µM
O=c1c(-c2ccc(O)cc2)coc2c(O[C@@H]3O[C@H](CO)[C@@H](O)[C@H](O)[C@H]3O)c(O)ccc12,,>100 µM

CCn is the concentration with n% toxicity to the cells. An empty or dashed field is not shown.